Patent US20100285095A1 (priority 2009, published 2010)

Each compound was assayed on S. aureus MN 8.
Type: cell-based, Staphylococcus aureus
In the case of `O=C([O-])C(O)CO.O=C([O-])C(O)CO.[Ca+2]` [calcium D-glycerate], the “Change in S. aureus cfu/mL vs. control” value is reported as <2 log. With `O=C(O)C(O)CO` (stereo not drawn) [calcium glycerate] the “Change in S. aureus cfu/mL vs. control” value was <2 log. In the case of calcium gluconate, the “Change in S. aureus cfu/mL vs. control” value is reported as <2 log.
